Percent effect of library compounds

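Phenotypic screen: M. tuberculosis growth, glucose 7H9 medium, 3 days; the read-out is not stated. Tested at 50 µM. Higher reads as more growth inhibition (inferred: compounds with an IC50 in retests scored well above the rest). Size under these conditions: about 69,000 compounds, about 760 of them at 50% or above in at least one test.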

Values are the deposited “Percent Effect”, in %. The controls that fix the scale are not given in the record; negative values are as filed. The entries come from a sample that favours strong results. Two or more numbers in one place are separate tests of the same structure; such repeats can differ widely.

Compound | effect
CC(Cn1cccn1)NC(=O)C1=Cc2ccccc2OC1 (centres unmarked) | -0.8495
Cl.NC(CC1CCCC1)c1ccccc1 (centres unmarked) | -26.72
COc1ccc(CNc2nc(C3CC3)no2)cc1OC | 2.247
Cc1ccc(CNC(=O)CN2CCN(CCO)CC2)s1 | 29.08
Cc1[nH]/c(=N\C(=O)c2csc(NC3CC3)n2)sc1C | -18.85
O=C(c1ccnn1COc1ccc(Cl)cc1)N1CCOCC1 | 2.363 and -4.88
CCCc1cc(=O)[nH]c(-n2nc(C3CC3)cc2N)n1 | 93.23
Cc1noc(NC(=O)CCNC(=O)c2ccc(Br)cc2)n1 | -28.45
NC(=O)NC(=O)CCN1CCCN(c2nccs2)CC1 | 79.74
Cc1cc(C(=O)NCC2SCCc3ccccc32)no1 (centres unmarked) | 56.27
Cc1cccc(CNC(Cc2ccsc2)c2nc(C)c(C)s2)n1.Cl (centres unmarked) | 63.49
CCc1cnc(N)nc1N[C@@H](C)c1ncccc1C | -8.579
O=C(NCCOc1ncc(Cl)cc1Cl)c1ccncc1 | 0.8383
Cc1cccc2c1cnn2CCCNC(=O)C1CC1 | 12.17
Cc1csc2ncc(-c3ccnc(N4CCN(C)CC4)n3)c(=O)n12 | -26.13
CC(=O)N(C)Cc1ccc(OCc2cccs2)cc1 | 27 and 25.71
Cn1nnc(NCc2ccc(OCc3ccc(Cl)cc3)cc2)n1 | 14.09
CCc1cnc(N2CCN(Cc3ccno3)CC2)s1 | 15.37
CC(C)N1CCN(C(=O)c2csc3nc(-c4ccc(Cl)cc4)cn23)CC1 | -5.649
Cc1cnc(NC(=O)C(C)Oc2ccc3c(c2)OCO3)s1 (centres unmarked) | 44.08
[H][C@@]12CCCCN(C)[C@]1([H])[C@@H](c1ccccc1)CCN2C(=O)c1ccccc1 | 57.53
CC(Nc1nc(-c2ccncc2)nc2c1CCNC2)c1ccccc1 (centres unmarked) | 41.66
CNC(=O)CN(C)c1cncc(OCC(C)C)n1 | -8.179 and 6.516
CCN(C)C(=O)C1(c2ccc(F)cc2F)CCC1 | -19.09
COc1cccc(-c2noc3c2CN(c2nc(C)ncc2C)CC3)c1 | 56.68
CCn1nc(C)c2c1cnn2CCNS(=O)(=O)Cc1ccccc1 | 57.91
CC(CCNC(=O)NCCc1ccncc1)c1ccccc1 (centres unmarked) | 1.093 and 18.26
Cc1noc(CNc2cc3c(cc2Cl)OCCCO3)n1 | -6.32 and 7.401
CN(CCCO)Cc1cc(Cl)ccc1OCC(O)CN1CCCCCC1 (centres unmarked) | 50.48
Cl.c1cc(CNCc2ccc(-n3cncn3)nc2)cc(OC2CCCC2)c1 | 49.48
COc1ccc(-c2ccccc2CCN)c(OC)c1OC | 53.44 and 50.26
Cl.O=S(=O)(N1CCCCC1)N1CCc2nc(C3CCNCC3)ncc2C1 | 57
Cc1cc(C)n(CC(=O)NCc2ccccn2)n1 | 0.1704 and -37.15
Cc1ccsc1-c1cc(C(=O)O)cc(S(=O)(=O)NCc2ccccn2)c1 | -15.05
c1ccc(-c2nc(SCc3nnc(C4CC4)o3)n[nH]2)nc1 | -41.53 and 6.052
CCc1cc(=O)[nH]c(-n2nc(C3CC3)cc2NC(=O)C2CC2)n1 | 72.3
CN1CCN(CC(CC(=O)Nc2ccc(Cl)cc2)C(=O)O)CC1 (centres unmarked) | 24 and 5.636
Cc1nc2c(c(NCC3Cc4ccccc4CN3C)n1)CCNCC2 (centres unmarked) | 21.29
O=C(NCC1(O)COCCN(Cc2cccc(O)c2)C1)c1ccccn1 (centres unmarked) | 8.837
O=C(COc1ccccc1)NCC1CC1 | 33.21
CCCOCCNc1nc2c(s1)c(C)nn2C | -3.24 and 1.09
Cn1ccnc1CN1CCN(c2ccc(C#N)cn2)CC1 | 16.81
Cl.Cl.Fc1cccc(-c2c[nH]c(C3CCCN3)n2)c1 (centres unmarked) | -3.202
O=C(COc1ccc2c(c1)OCO2)NCc1ccco1 | 35.99
Cn1cccc(NC(=O)COc2ccc(Cl)cc2)c1=O | -5.4 and 6.946
CCc1nc(CNc2ccc(F)cc2I)no1 | 61.19
CC(=O)N1CCc2cc(Cl)cc(Cl)c2C1 | 13.29
Cc1ccc(-c2nc(CN3CCOC(Cn4cccn4)C3)cs2)o1 (centres unmarked) | -1.922
CCOc1cc(C)c(-c2cc(N)[nH]n2)cc1OCC | 20.78
CCN(CC)CCNC(=O)c1cc(C(C)C)nc(N2CCCC2)n1 | -33.27
Br.O=C(CN(C1=NCCCC1)c1ccccc1)c1ccc(OC(F)F)cc1 | 64.71
OC1(CN2CCC(Oc3cccc(C(F)(F)F)c3)CC2)CNCCOC1 (centres unmarked) | 31.52
CN(C(=O)c1ccc(S(=O)(=O)NC(C)(C)C)cc1)C1(C#N)CCC1 | 8.988
O=C(NC1=NCCCN1c1ccc(Cl)cc1)c1cccc(Cl)c1 | -68.83
COc1ccc(C[C@H]2CN(C(=O)c3cc(C)no3)CC[C@H]2OC)cc1 | 16.57
O=C(C1CCCOC1)N1CCN(CC(F)(F)F)c2ccccc21 (centres unmarked) | 10.95
CC(C)c1nccn1C(C)C(=O)N1CCN(c2cnccn2)CC1 (centres unmarked) | 111.3 and -7.649
Cc1noc(NC(=O)c2ccc(OC(F)(F)F)cc2)n1 | 98.69
COc1ccccc1CC(=O)NS(=O)(=O)c1ccc(C(N)=O)cc1 | 25.01
COc1ccc(CCC(C)Nc2cccc(SC)c2)cc1 (centres unmarked) | 50.98
CCSc1nc2ccccc2c(=O)n1OCC(=O)OC | 67.21
Cc1nc(-c2ccc(NCCc3ccc(O)cc3)nc2)[nH]c(=O)c1C | 70.91
CC(=O)NCCNC(=O)c1ccc(C)c(-n2cccc2)c1 | -13.93
CC(C)Cc1nc(CN(C)CCOc2ccccc2F)no1 | -16.83
Cc1ccccc1CN1CCCN(S(=O)(=O)N(C)C2CCCCC2)CC1 | 21.29 and 68.47
Cc1nn(C2CCCCC2)c2nc(C(C)(C)CN3CCOCC3)[nH]c12 | -3.772
COCc1csc(NC(=O)NCc2ccc(C)s2)n1 | 9.293 and 9.405
Cc1ccccc1N1CCN(c2nc(N(C)C)nc3c2CCNC3)CC1 | 55.72
O=S(=O)(NCCN1CC=CC1)c1cncc(Cl)c1 | 12.81
OCC1CCN(Cc2cc3c(cc2Br)OCCO3)CC1 | 3.724 and 0.01411
COc1cc(C)sc1C(=O)NCCNc1ccccc1 | 65.31 and 74.25
Cc1nc(CN)cc(N2CCC(O)(c3ccc(Cl)cc3)CC2)n1 | 22.54

6 of the entries, repeated:

With CCc1cnc(N2CCN(Cc3ccno3)CC2)s1 the screen gave 15.37%.
With Cc1csc2ncc(-c3ccnc(N4CCN(C)CC4)n3)c(=O)n12 the screen gave -26.13%.
With O=C(c1ccnn1COc1ccc(Cl)cc1)N1CCOCC1 the screen gave 2.363% and -4.88%.
With [H][C@@]12CCCCN(C)[C@]1([H])[C@@H](c1ccccc1)CCN2C(=O)c1ccccc1 the screen gave 57.53%.
With CCN(CC)CCNC(=O)c1cc(C(C)C)nc(N2CCCC2)n1 the screen gave -33.27%.
With c1ccc(-c2nc(SCc3nnc(C4CC4)o3)n[nH]2)nc1 the screen gave -41.53% and 6.052%.

The values are deposited in ChEMBL (CHEMBL3988442, “University of Dundee, Small-Polar-MMV Screening Library” (2021)).